For one series, the system named is GBS WT strain. Briefly: NBD-labeled peptide fluorescence change on addition of bacteria (membrane interaction), WT. To be noted: NBD-labeled peptide 1 µM, NBD fluorescence relative to basal signal of the peptide after addition of bacteria, room temperature; means of triplicate measurements from two independent experiments. In kind it is cell-based, Streptococcus agalactiae.

For another series, the system named is GBS dltA mutant. Briefly: NBD-labeled peptide fluorescence change on addition of bacteria (membrane interaction), dltA. To be noted: NBD-labeled peptide 1 µM. In kind it is cell-based, Streptococcus agalactiae.
Setting [1] is: difference in the signal change between dltA strain to the WT strain.

As to “NBD-LL37: LL37 labeled with NBD at its N-terminus”, in the series with GBS WT strain, the “Signal change [%], NaCl (16 mM), WT” value is on record as 47.0% and the “Signal change [%], NaCl (160 mM), WT” value is on record as −3.4%. In addition, the “Signal change [%], NaCl (160 mM), dltA” value in the series with GBS dltA mutant (NBD fluorescence relative to basal signal of the peptide after addition of bacteria, room temperature, means of triplicate measurements from two independent experiments) was −3.7%. Moreover, in the series with GBS dltA mutant (setting [1]), the “Difference in signal change [%], NaCl (16 mM), Δ(dltA-WT)” value is listed as 12.1% and the “Difference in signal change [%], NaCl (160 mM), Δ(dltA-WT)” value was −0.3%.

The values are drawn from publication PMC3435245, “D-Alanylation of Lipoteichoic Acids Confers Resistance to Cationic Peptides in Group B Streptococcus by Increasing the Cell Wall Density” (PLoS Pathogens, 2012).
